Publication PMC7526519

Experiments:
Test in all cases: SPR
[1] = target: SARS-CoV receptor binding domain (RBD), His-tagged (SARS-CoV) (UniProt P59594); details: Fc fusion
[2] = target: wild Bactrian camel ACE2 ectodomain fused with mouse Fc (wild Bactrian camel)
[3] = target: SARS-CoV-2 receptor binding domain (RBD), His-tagged (SARS-CoV-2) (UniProt P0DTC2); details: Fc fusion

Substance | Kd [1] | fold higher affinity than SARS-CoV-2 RBD to the same ACE2 [2] | Kd [3]
fox ACE2 ectodomain fused with mouse Fc | 0.0179 µM |  | 
SARS-CoV receptor binding domain (RBD), His-tagged (from UniProt P59594 306-527) (domain or fragment) |  | 4 fold | 
civet ACE2 ectodomain fused with mouse Fc (from UniProt Q56NL1 18-740) | 0.121 µM |  | 
Malayan pangolin ACE2 ectodomain fused with mouse Fc | 0.227 µM |  | 0.0668 µM
little brown bat ACE2 ectodomain fused with mouse Fc | 12.4 µM |  | 
